Values joined by “and” are separate entries in the source; they are usually repeats but may differ in a detail not shown here. Equal values may be shown once. No dose or concentration is given here for some results.
System: poliovirus Sabin strains 1, 2, and 3
Format: cell-based

SMILES	TIs
CC(C)S(=O)(=O)n1c(N)nc2ccc(/C(=N/O)c3ccccc3)cc21 [Enviroxime]	290–1,657
OC(c1ccccc1)c1nc2ccccc2[nH]1 (stereo not drawn) [HBB, 2-(α-hydroxybenzyl)-benzimidazole]	> 1.3
N=c1ccn(Cc2nc3ccccc3n2-c2ccc(F)cc2)cc1 [MRL-1237]	> 19
NC(=O)c1ncn([C@@H]2O[C@H](CO)[C@@H](O)[C@H]2O)n1 [Ribavirin]	> 1.6 and > 1.8
